Results of unrelated studies side by side (data: NIAID ChemDB).

All rows: tests in culture; species: Rhinovirus; read by: plaque count; read-out: inhibition

Neighbouring rows are from separate reports.

compound	strain or isolate	tested at	cell line	value
Fc1cccc(Cn2cnc3c(Nc4cccc(F)c4)nc(C(F)(F)F)nc32)c1	Serotype 86	5 µM	M-HELA	38%
O=C(/C=C(\O)c1ccccc1O)/C=C/c1ccc([N+](=O)[O-])cc1	Serotype 1B	6.25 µM	HeLa	25%
Cc1ccc(Cn2cnc3c(N(C)C)nc(C(F)(F)F)nc32)c(C)c1	Serotype 21	8 µM	M-HELA	16%
CC(=O)Oc1ccc(/C=C/C(=O)Oc2c(-c3ccc(Cl)c(Cl)c3)oc3ccccc3c2=O)cc1OC(C)=O	Serotype 1B	0.39 µM	HeLa	13%
N#Cc1cc([N+](=O)[O-])ccc1Oc1ccc(Cl)c(Cl)c1	HANK	0.5 µg/mL	VERO	84.2%
CN(C)c1nc(C(F)(F)F)nc2c1ncn2Cc1ccc(C(F)(F)F)cc1	Serotype 2	4 µM	M-HELA	23%
O=C(/C=C(\O)c1ccccc1O)/C=C/c1ccc(Cl)cc1	Serotype 14	12.5 µM	HeLa	26%
COc1cc(C(=O)Oc2c(-c3ccc(Cl)cc3)oc3ccccc3c2=O)cc(OC)c1O	Serotype 14	1.56 µM	HeLa	27%
Cc1ccccc1Cn1cnc2c(N(C)C)nc(C(F)(F)F)nc21	Serotype 31	8 µM	M-HELA	47%
CS(=O)(=O)c1cnc2c(c1)CCC(c1ccc(Cl)c(Cl)c1)O2	Serotype 1A	0.5 µg/mL	HeLa	95.4%
COc1cc(C(=O)Oc2c(-c3ccc(Cl)c(Cl)c3)oc3ccccc3c2=O)ccc1OC(C)=O	Serotype 14	1.56 µM	HeLa	21%
CCCCCCCCCCCCCCOc1ccc(C(C)=O)o1	TYPE 39	0.25 µg/mL	HFF	98.8%
COc1cc(/C=C/C(=O)Oc2c(-c3ccc(Cl)cc3)oc3ccccc3c2=O)ccc1OC(C)=O	Serotype 14	1.56 µM	HeLa	10%
COc1nc2c(N(C)C)nc(C(F)(F)F)nc2n1Cc1ccc(C)cc1	TYPE 1B	8 µg/mL	M-HELA	17%
O=C(Oc1c(-c2ccc(Cl)c(Cl)c2)oc2ccccc2c1=O)c1cc(O)c(O)c(O)c1	Serotype 14	25 µM	HeLa	38%
Cc1ccc(/C=C/c2cc(=O)c3ccccc3o2)cc1	Serotype 14	6.25 µM	HeLa	10%
COc1cc(C(=O)Oc2c(-c3ccc(Cl)c(Cl)c3)oc3ccccc3c2=O)cc(OC)c1O	Serotype 1B	1.56 µM	HeLa	23%
Cc1ccc(Cn2cnc3c(N(C)C)nc(C(F)(F)F)nc32)cc1	TYPE 4	2.5 µM	M-HELA	41%

Percent inhibition refers to the dose given; in toxicity tests it is the harm to the cells.